Anti-infective test results gathered from many reports (values: NIAID ChemDB through PubChem).

All rows: enzyme or target tests; organism: Herpes simplex virus 1; target: Thymidine kinase

An empty or dashed field is not shown. Rows are shuffled and stem from different studies. ICn is the concentration giving n% inhibition. Inhibition is in % at the dose shown (toxicity tests: loss of growth or viability).

SMILES	read-out	strain	dose	result
Nc1nc2c(ncn2CC[C@@H](O)CO)c(=O)[nH]1	Ki	C42	-	1.5 µM
CCc1cn([C@H]2C[C@H](O)[C@@H](CNC(=O)COc3ccccc3)O2)c(=O)[nH]c1=O	IC50	-	-	0.7 µM
C#C[C@H]1O[C@@H](n2cc(C)c(=O)[nH]c2=O)C[C@@H]1O	IC50	KOS	-	3 µM
C/C=C/c1cn([C@@H]2O[C@H](CO)[C@@H](O)[C@@H]2O)c(=O)[nH]c1=O	inhibition	91075	100 µM	<0%
CCc1cn([C@H]2C[C@H](O)[C@@H](CNC(=O)Cc3ccccc3)O2)c(=O)[nH]c1=O	IC50	-	-	1 µM
CC(=O)NC[C@H]1O[C@@H](n2cc(C)c(=O)[nH]c2=O)C[C@@H]1O	IC50	-	-	>200 µM
Nc1nc2c(ncn2CC(CO)CCO)c(=O)[nH]1	Ki	C42	-	0.6 µM
Cc1ccc(S(=O)(=O)NC[C@H]2O[C@@H](n3cc(C)c(=O)[nH]c3=O)C[C@@H]2O)cc1	IC50	-	-	>200 µM
C/C=C/c1cn([C@H]2C[C@H](O)[C@@H](CO)O2)c(=O)[nH]c1=O	inhibition	91075	100 µM	53%
Nc1nc2c(ncn2CCCCO)c(=O)[nH]1	Ki	-	-	2.06 µM
Cc1cn([C@H]2C[C@H](O)[C@@H](CNS(=O)(=O)c3ccc(Br)cc3)O2)c(=O)[nH]c1=O	IC50	-	-	171 µM
Nc1nc(Cl)c2ncn([C@@H](CCO)OCCO)c2n1	Ki	-	-	1777 µM
Nc1nc(=O)n([C@@H]2O[C@H](CO)[C@@H](O)[C@@H]2F)cc1/C=C/Br	inhibition	F	200 µM	41.1%
Nc1nc(Cl)c2ncn([C@@H](CCO)SCCO)c2n1	Ki	-	-	667 µM
Nc1nc(=O)n([C@@H]2O[C@H](CO)[C@@H](O)[C@@H]2F)cc1/C=C/I	inhibition	F	200 µM	36.4%
C/C=C/c1cn([C@H]2C[C@H](O)[C@@H](CO)O2)c(=O)[nH]c1=O	Ki	-	-	0.2 µM
CCc1cn([C@H]2C[C@H](O)[C@@H](COS(=O)(=O)c3ccc(C)cc3)O2)c(=O)[nH]c1=O	IC50	-	-	12.7 µM
C[C@@H](O)Cn1cnc2c(CS)ncnc21	Ki	-	-	2400 µM
C#Cc1cn([C@@H]2O[C@H](CO)[C@@H](O)[C@@H]2F)c(=O)nc1N	inhibition	F	200 µM	47.7%
O=c1[nH]c(=O)n([C@@H]2O[C@H](CO)[C@@H](O)[C@@H]2O)cc1/C=C/Br	inhibition	91075	10 µM	<0%
C[C@@H](O)Cn1cnc2c(Cl)ncnc21	Ki	-	-	2100 µM
Nc1nc2c(ncn2[C@@H](CCO)OCCO)c(=O)[nH]1	Ki	-	-	1311 µM
Cc1cn([C@H]2C[C@H](O)[C@@H](CNS(=O)(=O)c3ccc([N+](=O)[O-])cc3)O2)c(=O)[nH]c1=O	IC50	-	-	127 µM
CCOC(=O)/C=C/c1cn([C@@H]2O[C@H](CO)[C@@H](O)[C@@H]2F)c(=O)nc1N	inhibition	F	200 µM	0.9%
C[C@@H](O)Cn1cnc2c(=S)nc(N)[nH]c21	Ki	-	-	800 µM
Nc1nc2c(ncn2CCC(O)CO)c(=O)[nH]1	Ki	-	-	1.53 µM
CCc1cn([C@H]2C[C@H](O)[C@@H](COP(=O)(O)OC(C)C)O2)c(=O)[nH]c1=O	IC50	-	-	208 µM
CCC(=O)NC[C@H]1O[C@@H](n2cc(I)c(=O)[nH]c2=O)C[C@@H]1O	IC50	-	-	159 µM
CCc1cn([C@@H]2O[C@H](CO)[C@@H](O)[C@@H]2F)c(=O)nc1N	inhibition	F	200 µM	24.3%

Repeating the final 2 entries:

SMILES	read-out	strain	dose	result
CCC(=O)NC[C@H]1O[C@@H](n2cc(I)c(=O)[nH]c2=O)C[C@@H]1O	IC50	-	-	159 µM
CCc1cn([C@@H]2O[C@H](CO)[C@@H](O)[C@@H]2F)c(=O)nc1N	inhibition	F	200 µM	24.3%